Where two headings read alike, the source gives them in different places.
What was measured:
[1] = test system: Pseudoperonospora cubensis; assay: Pseudoperonospora cubensis (cucurbit downy mildew) leaf disk assay; type: in vivo
[2] = test system: Botrytis (Strain B05.10); assay: Botrytis inhibition assay (resazurin assay); type: cell-based; conditions: tested alone at 2.5 μM
[3] = test system: Fusarium proliferatum; assay: Co-incubation (oCelloScope) assay, F. proliferatum conidial germination; type: cell-based; conditions: 24 hours at 23° C.
[4] = test system: Fusarium graminearum (Gibberella zeae); type: cell-based
[5] = test system: Fusarium oxysporum f. sp. lycopersici (Saccardo) Snyder et Hansen CBS 167.30; assay: Resazurin plate co-incubation assay, F. oxysporum; type: cell-based
[6] = test system: Botrytis cinerea b05.10; type: cell-based; conditions: for Inhibition: 24 hours at 20° C.

## CSCC[C@H](NC(=O)[C@@H]1CCCN1C(=O)[C@H](CCC(N)=O)NC(=O)CNC(=O)[C@@H]1CCCN1C(=O)[C@H](CCCCN)NC(=O)[C@H](CC(C)C)NC(=O)[C@H](CCC(N)=O)NC(=O)[C@H](CC(C)C)NC(=O)[C@H](Cc1c[nH]c2ccccc12)NC(=O)[C@H](Cc1c[nH]cn1)NC(=O)[C@@H](N)Cc1c[nH]c2ccccc12)C(=O)N[C@@H](Cc1ccc(O)cc1)C(=O)N[C@@H](CCCNC(=N)N)C(=O)N[C@@H](CCCNC(=N)N)C(=O)N[C@@H](CCCNC(=N)N)C(=O)N[C@@H](CCCNC(=N)N)C(=O)N[C@@H](CCCNC(=N)N)C(=O)N[C@@H](CCCNC(=N)N)C(=O)N[C@@H](CCCNC(=N)N)C(=O)N[C@@H](CCCNC(=N)N)C(=O)O [Pep340]
[1]; 20 micromolar
  Inhibition (reduced disease severity of leaf discs): did not and No
[1]; Downy Mildew
  Summary of CGI factor spectrum of activity: No
[2]
  Percent Inhibition EXP23002594: 9.26%
  Percent Inhibition EXP23002662: 5.3%
[3]; tested alone at 0.125 uM
  Inhibition of conidial germination: No
[3]; tested alone at 0.25 uM
  Inhibition of conidial germination: No
[3]; tested alone at 0.5 uM
  Inhibition of conidial germination: showed activity and Yes and No
[3]; tested alone at 1 uM
  Inhibition of conidial germination: effective and Yes
[4]; 50 micromolar
  Inhibition: Yes
[4]; Fusarium graminearum
  Summary of CGI factor spectrum of activity: Yes
[5]; 50 micromolar
  Inhibition: Yes
[5]; Fusarium oxysporum
  Summary of CGI factor spectrum of activity: Yes
[6]; 10 micromolar
  Inhibition: inhibited and Yes
[6]; 100 micromolar
  Inhibition: inhibited and Yes
[6]; Botrytis cinerea, at least one concentration tested
  Summary of CGI factor spectrum of activity: completely inhibited conidial germination and Yes

Reference: US20260223846A1, “PEPTIDE IN COMBINATION WITH FUNGICIDE COMPOSITIONS FOR FUNGAL CONTROL AND RELATED METHODS” (priority 2023, published 2026)
